Neutralizing activity (IC50) on HCVpp, Neutralizing activity (IC50) on control pseudotype virus and OD 450 nm data for one substance are collected here from patent US20110311550A1, “Agents for hcv treatment” (published 2011).

Assay [1] deals with E1E2 (Env) of HCV isolate UKN1B12.16 (genotype 1b) on HCVpp (hepatitis C virus, isolate UKN1B12.16). The assay can be described thus: cell-based or functional assay.
The target in assay [2] is E1E2 (Env) of HCV isolate UKN2B1.1 (genotype 2b) on HCVpp (hepatitis C virus, isolate UKN2B1.1). As to the kind of experiment: cell-based or functional assay.
In assay [3] the target is E1E2 (Env) of HCV isolate OH8 (genotype 1b) on HCVpp (hepatitis C virus, isolate OH8). As to the kind of experiment: cell-based or functional assay.
Assay [4] deals with E1E2 (Env) of HCV isolate J6 (genotype 2a) on HCVpp (hepatitis C virus, isolate J6) (UniProt P26660). The assay can be described thus: cell-based or functional assay.
Assay [5] concerns the target E1E2 (Env) of HCV isolate UKN5.15.7 (genotype 5) on HCVpp (hepatitis C virus, isolate UKN5.15.7). The assay can be described thus: cell-based or functional assay.
Assay [6] addresses E1E2 (Env) of HCV isolate UKN4.21.16 (genotype 4) on HCVpp (hepatitis C virus, isolate UKN4.21.16). The assay can be described thus: cell-based or functional assay.
Assay [7] deals with E1E2 (Env) of HCV isolate UKN2A1.2 (genotype 2a) on HCVpp (hepatitis C virus, isolate UKN2A1.2). The assay can be described thus: cell-based or functional assay.
The target of assay [8] is VSV (control pseudotype virus envelope). As to the kind of experiment: cell-based or functional assay.
The target in assay [9] is E1E2 (Env) of HCV isolate H (genotype 1a) on HCVpp (hepatitis C virus, isolate H). As to the kind of experiment: cell-based or functional assay.
The target in assay [10] is HCV E1E2 antigen, isolate UKN3A1.28c (hepatitis C virus, isolate UKN3A1.28c). The assay can be described thus: ELISA, IgG (1 ug/mL, positive control) on E1E2 antigen.
The target in assay [11] is HCV E1E2 antigen, isolate UKN6.5.8 (hepatitis C virus, isolate UKN6.5.8). Described as above.
Assay [12] addresses HCV E1E2 antigen, isolate CH35 (hepatitis C virus, isolate CH35). Described as above.
For assay [13], the target named is HCV E1E2 antigen, isolate UKN5.15.7 (hepatitis C virus, isolate UKN5.15.7). The description is as above.
In assay [14] the target is HCV E1E2 antigen, isolate UKN2B1.1 (hepatitis C virus, isolate UKN2B1.1). Described as above.
The target in assay [15] is HCV E1E2 antigen, isolate OH8 (hepatitis C virus, isolate OH8). The description is as above.
For assay [16], the target named is HCV E1E2 antigen, isolate UKN4.21.16 (hepatitis C virus, isolate UKN4.21.16). The description is as above.
Assay [17] has as its target HCV E1E2 antigen, isolate UKN1B12.16 (hepatitis C virus, isolate UKN1B12.16). Described as above.

Turning to MAb AR3A (antibody), the Neutralizing activity (IC50) on HCVpp in [1] came to 1 µg/mL; in assay [2] it was 10 µg/mL; in assay [3], 5 µg/mL; in assay [4], 10 µg/mL; in assay [5], 1 µg/mL; in assay [6], 1 µg/mL. Moreover, the Neutralizing activity (IC50) on HCVpp in [7] turned out to be 10 µg/mL; in assay [9], 1 µg/mL. The same substance showed a Neutralizing activity (IC50) on control pseudotype virus in [8] of over 50 µg/mL. Moreover, the OD 450 nm in assay [10] is 1.31 OD 450 nm; in [11], 1.33 OD 450 nm; in assay [12] it was 1.48 OD 450 nm; in assay [13], 0.87 OD 450 nm; in assay [14] it was 1.09 OD 450 nm; in assay [15], 1.83 OD 450 nm. Further, the figures for the OD 450 nm in [16] and in [17] were 1.77 OD 450 nm and 1.81 OD 450 nm, respectively.
